Results deposited as PubChem BioAssay AID1224833 (University of Georgia, 2016)
Test: 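Human genes whose knock-down alters rotavirus replication in monkey cells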 (primary screen). Cell system: monkey MA104 kidney cells. Knock-down reagent: siRNA pool against human genes, 50 nM. Duration: 48 h knock-down before infection; read 24 h after infection. Challenge: infection with rotavirus strain RV3 two days after transfection; infectious dose for this stage not given. Read-out: 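Rotavirus antigen per well by fluorescent immunoassay, normalised to non-targeting control wells on each plate and given as a standard z-score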. Reading the numbers: z-score vs non-targeting control: higher = more rotavirus replication than with non-targeting control. Hit rule: In these data the active calls have z-score vs non-targeting control at about -1 or lower, or at about 1 or higher. Meaning of the calls: active = z-score beyond 1 either way; inactive = z-score within 1 of zero.
The deposit covers about 12,000 reagents; below is a random part of them. Of all reagents, about 5,600 (46%) got an active call. 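Active calls cover z-scores past 1 in both directions, so they include lowered as well as raised rotavirus replication.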

Target gene	z-score vs non-targeting control	Call
RABL2A (RAB, member of RAS oncogene family like 2A)	-0.642	inactive
AGPAT4 (1-acylglycerol-3-phosphate O-acyltransferase 4)	-1.13	active
SPATC1L (spermatogenesis and centriole associated 1 like)	-0.326	inactive
BRD9 (bromodomain containing 9)	-1.45	active
SCLT1 (sodium channel and clathrin linker 1)	1.87	active
PPOX (protoporphyrinogen oxidase)	-0.886	inactive
TCP11 (t-complex 11)	0.602	inactive
STK11IP (serine/threonine kinase 11 interacting protein)	-2.45	active
CDH3 (cadherin 3)	0.539	inactive
CD180 (CD180 molecule)	-0.576	inactive
PDZD11 (PDZ domain containing 11)	-0.613	inactive
CTDSPL2 (CTD small phosphatase like 2)	0.892	inactive
IFNA8 (interferon alpha 8)	-0.296	inactive
ZNF839 (zinc finger protein 839)	-0.871	inactive
GUCA1B (guanylate cyclase activator 1B)	-1.33	active
XAGE2 (X antigen family member 2)	-0.64	inactive
H4C5 (H4 clustered histone 5)	-0.241	inactive
RAPGEF6 (Rap guanine nucleotide exchange factor 6)	-0.696	inactive
NT5DC2 (5'-nucleotidase domain containing 2)	0.516	inactive
SLA (Src like adaptor)	-0.339	inactive
UPF2 (UPF2 regulator of nonsense mediated mRNA decay)	0.749	inactive
KRTAP15-1 (keratin associated protein 15-1)	-1.93	active
EZH1 (enhancer of zeste 1 polycomb repressive complex 2 subunit)	-2.9	active
NDUFB6 (NADH:ubiquinone oxidoreductase subunit B6)	-0.353	inactive
SYNDIG1 (synapse differentiation inducing 1)	-0.99	inactive
UBAP2L (ubiquitin associated protein 2 like)	-0.867	inactive
SLX4 (SLX4 structure-specific endonuclease subunit)	-0.353	inactive
SPATA31D1 (SPATA31 subfamily D member 1)	-1.91	active
FJX1 (four-jointed box kinase 1)	-1.45	active
EDNRB (endothelin receptor type B)	0.688	inactive
CYP27B1 (cytochrome P450 family 27 subfamily B member 1)	-1.29	active
RBBP7 (RB binding protein 7, chromatin remodeling factor)	-1.54	active
ZSCAN1 (zinc finger and SCAN domain containing 1)	0.0846	inactive
VPREB1 (V-set pre-B cell surrogate light chain 1)	-1.88	active
PRF1 (perforin 1)	0.987	inactive
CNBD2 (cyclic nucleotide binding domain containing 2)	-0.686	inactive
DNAJC4 (DnaJ heat shock protein family (Hsp40) member C4)	-1.71	active
UTP3 (UTP3 small subunit processome component)	-1.27	active
SLC28A3	1.2	active
ITGB5 (integrin subunit beta 5)	-0.31	inactive
CHODL (chondrolectin)	-0.537	inactive
PPP1R11 (protein phosphatase 1 regulatory inhibitor subunit 11)	-1.7	active
UQCR10 (ubiquinol-cytochrome c reductase, complex III subunit X)	-0.483	inactive
HSPA12A (heat shock protein family A (Hsp70) member 12A)	0.859	inactive
MED11 (mediator complex subunit 11)	-2.29	active
